According to ChEMBL document CHEMBL1124753, “Hydroxyethylamine analogues of the p17/p24 substrate cleavage site are tight-binding inhibitors of HIV protease” (J Med Chem, 1990):

Target: Human immunodeficiency virus type 1 protease (Human immunodeficiency virus 1, UniProt Q72874)
Test: Inhibition of HIV protease at pH 6.4, 37 degree C
Procedure, shortened: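 Recombinant HIV protease expressed in E. coli; substrate Ac-Thr-Ile-Met-Gln-Arg-NH2 varied 0.5–10 mM. Inhibitor added in DMSO (final 1–3%), preincubated with enzyme 10 min before substrate started the reaction. Initial rates by HPLC and fluorometric assays. Ki from fitting initial velocities to the competitive inhibition equation; each is the average of three or more independent determinations.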

`CC[C@H](C)[C@H](NC(=O)[C@@H]1CCCN1C[C@H](O)[C@H](Cc1ccccc1)NC(=O)[C@H](CC(N)=O)NC(=O)[C@H](CC(C)C)NC(C)=O)C(=O)OC` showed a Ki of 4.52 µM.
